The exact form of at least one protein or probe is not confirmed. At least one verdict was read from the data and is not stated in words by the source. Protein sequences can lack the tags named with them.
Biological target: T1, SPM-1 beta-lactamase (Pseudomonas aeruginosa) (UniProt Q8G9Q0)
T1 sequence (looked up, limits assumed): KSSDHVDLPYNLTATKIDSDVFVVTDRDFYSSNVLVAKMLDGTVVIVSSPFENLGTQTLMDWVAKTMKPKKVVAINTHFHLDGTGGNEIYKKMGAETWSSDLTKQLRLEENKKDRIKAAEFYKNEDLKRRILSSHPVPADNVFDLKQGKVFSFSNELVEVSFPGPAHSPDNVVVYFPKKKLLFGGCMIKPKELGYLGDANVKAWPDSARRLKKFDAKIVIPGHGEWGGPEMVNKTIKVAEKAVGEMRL
Assay: BLI
Settings: 5 mM Mg2+, 5 uM Zn2+, only the range over all aptamers given

“GGGAGACUCAGCCUUCACUGCUAGAGAUUCGGUGGGACACCCGGUGAAAGGCUGACCACUAGGCACCACGGUCGGAUCC [S1 RNA]”: binds.

— publication doi:10.1101/2024.08.16.608213
